Measured values: article PMC8876964 (Pharmaceuticals, 2022)
Like-named read-outs stand apart in the source and are kept apart here.

Experiments:
[1] = Biodistribution in normal CD-1 mice; assay type: in vivo; settings: mouse, iv, total radioactivity, 0.37 MBq i.v., n = 4–5, mean ± SD
Protocol: The comparison of non-albumin binding and albumin binding peptides were evaluated in CD-1 mice at 1, 4, 24, and 48 h. ^177Lu-labeled peptides were prepared at the specific activity of 10 MBq/nmol. Mice (n = 4–5) were intravenously injected with 0.37 MBq (10 µCi) of respective radioligands diluted in 100 μL saline and sacrificed at specified time points. Selected organs were collected, weighed, and counted for activity. The results were reported as the percentage of the injected radioactivity per gram of tissue mass (% ID/g) and the radioactivity was calibrated using a known standard.

[2] = Biodistribution in mice bearing BxPC-3 tumor xenografts; assay type: in vivo; settings: athymic nude, mouse, iv, total radioactivity, BxPC-3 tumor mice, 0.37 MBq i.v.; for tissue uptake at 48 h: 48 h p.i.
Protocol: Animals were supplied from Charles River Laboratories (Wilmington, MA, USA), and were handled in compliance with the Guidelines for Care and Use of Research Animals established by the Division of Comparative Medicine and the Animal Studies Committee of Washington University School of Medicine. Biodistribution studies were conducted in athymic nude mice bearing subcutaneous BxPC-3 tumors. Tumors were implanted on the right flank with 5 × 10^6 cells about 4 weeks before the performance of the experiments. Biodistribution studies were performed when the tumors reached approximately 5–7 mm in diameter. […] Tissues of interest (blood, lung, liver, spleen, kidney, muscle, heart, bone, and tumor) were collected and weighed, and the radioactivity was measured using a gamma counter. The results were expressed as the percentage of injected dose per gram of tissue (%ID/g).

BxPC-3 tumors = experiment: Therapy studies in BxPC-3 tumor-bearing mice; assay type: in vivo, athymic nude mice; settings: for mice with significant weight loss of greater than 20% of body weight: n = 8
Protocol: Therapy studies were conducted in athymic nude mice bearing BxPC-3 tumors when the tumor volume reached about 100 mm^3. […] Tumor volumes and body weights were monitored three times a week. Individual tumor size was calculated using the formula (length × width × width)/2. The mice were euthanized when the tumor reached 1500 mm^3, ulceration of >4 mm was present, or significant stress due to weight loss. […] The doses were administered via tail vein and tumor size and mouse weights were recorded three times a week. Tumor volumes were plotted versus time to determine tumor growth inhibition.

[3] = tested on: BxPC-3 tumors and normal organs; experiment: H&E and Ki-67 immunohistochemical staining of tissues of treated mice; assay type: in vivo; settings: 37 MBq per mouse
[4] = blood, n = 4–5, mean ± SD, read-out: blood uptake
[5] = n = 4–5, mean ± SD, read-out: tumor uptake

CC(C)C[C@H](NC(=O)[C@H](CC(=O)O)NC(=O)CNC(=O)[C@H](CCCNC(=N)N)NC(=O)[C@H](CC(C)C)NC(=O)[C@H](CC(N)=O)NC(=O)[C@@H]1CCCN1C(=O)[C@@H](NC(=O)[C@H](C)NC(=O)[C@H](CC(N)=O)NC(=O)CCOCCOCCOCCOCCOCCOCCOCCOCCOCCOCCOCCOCCOCCOCCOCCOCCOCCOCCOCCOCCOCCOCCOCCOCCOCCOCCOCCOCCNC(=O)[C@H](CCCCNC(=O)CCCc1ccc(I)cc1)NC(=O)CN1CCN(CC(=O)O)CCN(CC(=O)O)CCN(CC(=O)O)CC1)C(C)C)C(=O)N[C@@H](CCC(N)=O)C(=O)N[C@H](C(=O)N[C@@H](CC(C)C)C(=O)N[C@@H](C)C(=O)N[C@@H](CCC(N)=O)C(=O)N[C@@H](CCCCN)C(=O)N[C@H](C(=O)N[C@@H](C)C(=O)N[C@@H](CCCNC(=N)N)C(=O)N[C@H](C(=O)NCCOCCOCCOCCOCCOCCOCCOCCOCCOCCOCCOCCOCCOCCOCCOCCOCCOCCOCCOCCOCCOCCOCCOCCOCCOCCOCCOCCOCCC(N)=O)[C@@H](C)O)C(C)C)C(C)C [[^177Lu]Lu-IBA-DOTA-(PEG28)2-A20FMDV2, metal not drawn]
tissue uptake at 1 h ([1]; blood, read-out: blood uptake): 4.7 ± 0.68 %ID/g | tissue uptake at 48 h ([1]; blood, 48 h p.i., read-out: blood uptake): 0.09 ± 0.02 %ID/g | tissue uptake at 1 h ([1]; kidney, read-out: kidney uptake): 93.4 ± 13.5 %ID/g | tissue uptake at 48 h ([1]; kidney, 48 h, read-out: kidney uptake): 25 ± 1.92 %ID/g | tissue uptake at 1 h ([2]; blood, 1 h p.i., n = 4–5, mean ± SD): 5.43 ± 0.71 %ID/g | tissue uptake at 4 h [2, 4]: 1.06 ± 0.07 %ID/g | tissue uptake at 48 h [2, 4]: 0.04 ± 0.01 %ID/g | tissue uptake at 4 h [2, 5]: 5.14 ± 0.92 %ID/g | tissue uptake at 48 h [2, 5]: 4.06 ± 0.54 %ID/g | tissue uptake at 4 h ([2]; kidney, n = 4–5, mean ± SD, read-out: kidney uptake): 119 ± 24.5 %ID/g | tissue uptake ([2]; lung, liver, spleen, muscle, heart, bone, all time points (1, 4, 24, 48 h), read-out: uptake in normal organs such as lung, liver, spleen, muscle, heart, and bone): < 4 %ID/g | mice with significant weight loss of greater than 20% of body weight (BxPC-3 tumors; 18.5 MBq): One mouse | tumor inhibition in comparison to control group (BxPC-3 tumors; 18.5 MBq, n = 8, until day 23, p < 0.01): effective tumor inhibition | mice with significant weight loss of greater than 20% of body weight (BxPC-3 tumors; 27.8 MBq): 4 out of 8 | tumor inhibition in comparison to control group (BxPC-3 tumors; 27.8 MBq, n = 8, until day 23 (p < 0.001 for the IBA peptide)): effective tumor inhibition | body weight change (BxPC-3 tumors; single dose of 37 MBq): significant weight loss, but not as severe | tumor volumes in comparison to the control group (BxPC-3 tumors; single dose of 37 MBq, BxPC-3 tumor-bearing mice, n = 8, p < 0.001): significantly reduced | kidney histology (H&E) ([3]; n = 4): kidney injury | histology of heart, lung, liver and spleen sections (H&E) ([3]; n = 4, data not shown): Injury was not observed | Ki-67 expression in tumor tissues ([3]; n = 4, mean ± SD, control group 51.39 ± 5.56%, p = 0.0044): 34.51 ± 5.24% | % intact in human serum: > 90%
